A mixed list of measured activities; the numbers were collected in NIAID ChemDB.

Common to all: toxicity to cultured cells; cell line: VERO; measure: CC50

Neighbouring rows are from separate reports. Blank or dashed fields: not listed here. CCn is the concentration with n% toxicity to the cells. Two numbers with a dash give a range or band.

{"smiles": "CC(=O)c1ccc(-c2cc(C(F)(F)F)nc3c(C(F)(F)F)cccc23)cc1", "value": ">128 µM"}
{"smiles": "Cc1ccc(N2C(=O)CCC2(C#N)c2ccc(OC(C)C)cc2)cc1", "read by": "absorbance", "value": "46.5 µM"}
{"smiles": "Cc1c(CN2CCSCC2)cc(-c2cccc3ccccc23)n1-c1ccc(F)cc1", "value": ">128 µg/mL"}
{"smiles": "O=C(O)Cn1cc(C#Cc2ccc3c4cccc5cccc(c6cccc2c63)c54)c(=O)[nH]c1=O", "read by": "MTT", "value": ">20 µM"}
{"smiles": "CCc1nc2ccc(Cl)cn2c1C(=O)NCc1cccc(S(F)(F)(F)(F)F)c1", "value": ">32 µM"}
{"smiles": "O=c1ccnc2c(Cl)c3[nH][nH]nc3cc12", "read by": "MTT", "value": ">100 µM"}
{"smiles": "CCN(CC)c1cc(-c2ccc(OC)cc2OC)on1", "value": ">362 µM"}
{"smiles": "Cc1cc(C)cc(N2C(=O)CCC2(C#N)c2c(Cl)cccc2Cl)c1", "read by": "absorbance", "value": ">100 µM"}
{"smiles": "CCc1nc2sc(C)cn2c1C(=O)NCc1ccc2c(c1)CCO2", "value": ">32 µM"}
{"smiles": "CCOc1ccc(-c2cc(N3CCCCC3)no2)c(O)c1", "value": ">347 µM"}
{"smiles": "Nc1nccc2c1ncn2[C@H]1CC[C@@H](CO)O1", "value": "200 µg/mL"}
{"smiles": "Cc1nc2ccc(Cl)cn2c1C(=O)NCc1ccc2c(c1)CCO2", "value": ">32 µM"}
{"smiles": "O=c1[nH]c(=O)n([C@H]2C[C@H](O)[C@@H](CO)O2)cc1C#CC#Cc1cc2cccc3ccc4cccc1c4c32", "read by": "MTT", "value": ">20 µM"}
{"smiles": "COc1cccc(-c2cc(C(F)(F)F)nc3c(C(F)(F)F)cccc23)c1", "value": "57 µM"}
{"smiles": "CNc1nc(Cl)nc2c1ncn2[C@H]1C[C@H](N=[N+]=[N-])[C@@H](CO)O1", "read by": "MTS", "value": ">100 µM"}
{"smiles": "Cc1nc2cc(Cl)ccn2c1C(=O)NCc1ccc2c(c1)CCO2", "value": ">32 µM"}
{"smiles": "[N-]=[N+]=N[C@H]1C[C@H](n2cnc3c(N)nc(Cl)nc32)O[C@@H]1CO", "read by": "MTS", "value": ">100 µM"}
{"smiles": "FC(F)(F)c1cc(N2CCOCC2)c2cccc(C(F)(F)F)c2n1", "value": ">128 µM"}
{"smiles": "c1ccc(-c2ccc(-c3nc4cc5ncccc5cc4[nH]3)cc2)cc1", "read by": "MTT", "value": ">80 µM"}
{"smiles": "Nc1nc(=O)n([C@H]2C[C@H](O)[C@@H](CO)O2)cc1C#CCOCc1ccc2c3cccc4cccc(c5cccc1c52)c43", "read by": "MTT", "value": ">20 µM"}
{"smiles": "COc1ccc(-c2cc(N(C)C)no2)c(O)c1", "value": ">427 µM"}
{"smiles": "C[C@@]1(CO)C[C@H]2[C@H](OC(=O)[C@H](O)[C@@H](NC(=O)c3ccccc3)c3ccccc3)C3=C(C[C@](C)(O)[C@H]2C1)C(=O)OC3", "value": "325.4 µg/mL"}
{"smiles": "CC(C)(C)C(=O)OCn1nc([C@@H]2O[C@H](CO)C[C@H]2O)c2ncnc(N)c21", "value": "200 µg/mL"}
{"smiles": "CCc1nc2sc(C)cn2c1C(=O)NCc1ccc(N2CCC(c3ccc(OC(F)(F)F)cc3)CC2)cc1", "value": ">32 µM"}
{"smiles": "CC1(C)C[C@H]2C=C(COC(=O)[C@H](O)[C@@H](NC(=O)c3ccccc3)c3ccccc3)[C@@]3(C=O)C[C@]3(C)[C@H]2C1", "value": "109.1 µg/mL"}
{"smiles": "Nc1ncnc2c1CCN2[C@@H]1O[C@H](CO)C[C@H]1O", "value": "40 µg/mL"}
{"smiles": "NS(=O)(=O)c1ccc(CN2CCCC[C@H]2[C@@H](O)c2cc(C(F)(F)F)nc3c(C(F)(F)F)cccc23)cc1", "value": "38 µM"}
{"smiles": "CCO[C@@]1(C)Cc2cocc2[C@@H](OC(=O)[C@H](O)[C@@H](NC(=O)c2ccccc2)c2ccccc2)[C@@H]2CC(C)(C)C[C@@H]21", "value": "190.9 µg/mL"}
{"smiles": "Cc1ccn2c(C(=O)NCc3ccc(N4CCC5(CC4)OC[C@H](C)O5)c(F)c3)c(C)nc2c1", "value": ">32 µM"}
{"smiles": "CO[C@H]1[C@H](O)[C@@H](CO)O[C@H]1n1cc(C#Cc2ccc3c4cccc5cccc(c6cccc2c63)c54)c(=O)[nH]c1=O", "read by": "MTT", "value": ">20 µM"}
{"smiles": "C[C@@]1(CO)C[C@H]2[C@@H](OC(=O)[C@H](O)[C@@H](NC(=O)c3ccccc3)c3ccccc3)C3=C(C[C@](C)(O)[C@H]2C1)C(=O)OC3", "value": "349.8 µg/mL"}
{"smiles": "Cc1ccn2c(C(=O)NCc3ccc(N4CCC(c5ccc(OC(F)(F)F)cc5)CC4)cc3)c(C)nc2c1", "value": ">32 µM"}
{"smiles": "CN1CCN(/N=C/c2cc(C(F)(F)F)nc3c(C(F)(F)F)cccc23)CC1", "value": "16 µM"}
{"smiles": "O=c1[nH]c(=O)n([C@@H]2O[C@H](CO)[C@@H](O)[C@H]2O)cc1-n1cc(-c2ccc3c4cccc5cccc(c6cccc2c63)c54)nn1", "read by": "MTT", "value": ">20 µM"}
{"smiles": "CCc1nc2ccc(Cl)cn2c1C(=O)NCc1ccc(N2CCS(=O)(=O)CC2)cc1", "value": ">32 µM"}
{"smiles": "CCCCNC(=O)Cn1cc(C#Cc2ccc3c4cccc5cccc(c6cccc2c63)c54)c(=O)[nH]c1=O", "read by": "MTT", "value": "6–20 µM"}
{"smiles": "CCOc1ccc(-c2onc(N(CC)CC)c2Cc2c(N(CC)CC)noc2-c2ccc(O)cc2O)c(O)c1", "value": "17 µM"}
{"smiles": "O=c1[nH]c(=O)n([C@@H]2O[C@H](CO)[C@@H](O)[C@H]2O)cc1-n1cc(-c2ccccc2)nn1", "read by": "MTT", "value": ">20 µM"}
{"smiles": "Nc1ncnc2c1CCN2[C@@H]1O[C@H](CSCCC(N)C(=O)O)C[C@H]1O", "value": "400 µg/mL"}
{"smiles": "CN(C)c1cc(-c2ccc(O)cc2O)on1", "value": "227 µM"}
{"smiles": "COc1nc(F)nc2c1ncn2[C@H]1C[C@H](N=[N+]=[N-])[C@@H](CO)O1", "read by": "MTS", "value": ">100 µM"}
{"smiles": "COc1ccccc1-c1nc2cc3ncccc3cc2[nH]1", "read by": "MTT", "value": ">75 µM"}
{"smiles": "NCCCNc1cc(C(F)(F)F)nc2c(C(F)(F)F)cccc12", "value": ">128 µM"}
{"smiles": "CC(=O)O[C@@H]1C2=C(C[C@](C)(O)[C@H]3C[C@](C)(COC(=O)[C@H](O)[C@@H](NC(=O)c4ccccc4)c4ccccc4)C[C@@H]13)C(=O)OC2", "value": "419.7 µg/mL"}
{"smiles": "CCN(CC)c1noc(-c2ccc(O)cc2O)c1Cc1c(N(CC)CC)noc1-c1ccc(OC)cc1O", "value": "3.5 µM"}
{"smiles": "CC(C)c1ccc(C2(CN)CCC(=O)N2c2ccccc2)cc1", "read by": "absorbance", "value": "33 µM"}
{"smiles": "Nc1ncnc2c([C@@H]3O[C@H](CCl)[C@@H](O)[C@H]3O)[nH]nc12", "value": "200 µg/mL"}
{"smiles": "C[C@](N)(Cc1ccc(-c2ccccc2)cc1)C(=O)O", "read by": "MTT", "value": ">400 µM"}

A second listing of 4 rows from above:

smiles	read by	value
CCc1nc2ccc(Cl)cn2c1C(=O)NCc1ccc(N2CCS(=O)(=O)CC2)cc1	-	>32 µM
O=c1[nH]c(=O)n([C@@H]2O[C@H](CO)[C@@H](O)[C@H]2O)cc1-n1cc(-c2ccc3c4cccc5cccc(c6cccc2c63)c54)nn1	MTT	>20 µM
CO[C@H]1[C@H](O)[C@@H](CO)O[C@H]1n1cc(C#Cc2ccc3c4cccc5cccc(c6cccc2c63)c54)c(=O)[nH]c1=O	MTT	>20 µM
NS(=O)(=O)c1ccc(CN2CCCC[C@H]2[C@@H](O)c2cc(C(F)(F)F)nc3c(C(F)(F)F)cccc23)cc1	-	38 µM